A mixed list of measured activities; the numbers were collected in NIAID ChemDB.

Common to all: growth or infection tests; agent: Rhinovirus; read-out: EC50

ECn: concentration that inhibits the pathogen or its effect by n%. Rows are shuffled and stem from different studies.

compound	method	cells	strain	value
CSc1nsc(-c2ccc(OCCc3ccccc3)cc2)c1C#N	cytopathic effect	HELA-OHIO	Serotype 72 (group A)	>20 µM
Cc1nc(-c2cc(C)c(OCCCc3ccc(C(F)F)o3)c(C)c2)no1	cytopathic effect	HeLa	serotypes 3 4 5 9 16 18 38 66 75 67	0.659 µg/mL
CSc1nsc(-c2ccc(OCCCCOc3ccc(C#N)cc3)cc2)c1C#N	cytopathic effect	HELA-OHIO	Serotype 9 (group B)	>2 µM
COc1ccc(-c2snc(SC)c2C#N)cc1	cytopathic effect	HELA-OHIO	Serotype 86 (group A)	>12 µM
CSc1nsc(-c2ccc(OCCCCOc3ccccc3)cc2)c1C#N	cytopathic effect	HELA-OHIO	Serotype 14 (group A)	2.37 µM
Cc1c(-c2ccccc2)n(-c2cccc(F)c2)c2ccc(C(C)C)cc2c1=O	cytopathic effect	HELA-OHIO	13/353	0.029 µg/mL
CC(C)S(=O)(=O)c1ccc(Oc2ccc(C(=O)c3ccccc3)cc2)nc1	cytopathic effect	HeLa	TYPE 1A	>5 µg/mL
CCCc1ccc(CCCOc2c(C)cc(-c3nnn(C)n3)cc2C)o1	cytopathic effect	HeLa	serotypes 2 14 1A 1B 6 21 22 15 25 30 50 67 89 86 41	0.453 µg/mL
CCO/N=C/c1ccc(OCCC2CCN(c3ccc(Cl)nn3)CC2)cc1	neutral red	KB	107E (ICAM-1 receptor group 73)	0.003 µM
CCn1c2c(c(=O)c3cc(C(C)C)ccc31)Cc1ccccc1-2	cytopathic effect	HELA-OHIO	8/MRH	0.46 µg/mL
Cc1cc(CCCCCOc2c(Cl)cc(C3=NCCO3)cc2Cl)on1	plaque count	HeLa	TYPE 2	0.09 µg/mL
Fc1ccc(Cn2cnc3c(Nc4cccc(F)c4)nc(C(F)(F)F)nc32)cc1	plaque count	M-HELA	Serotype 2	6.7 µM
Cc1cc(CCCOc2c(C)cc(-c3noc(C(F)(F)F)n3)cc2C)on1	cytopathic effect / visual reading	OHIO HELA-I	Isolate 30	>10 µg/mL
CCOC(=O)c1ccc(OCCC2CCN(c3ccc(C)nn3)CC2)cc1	cytopathic effect	HeLa	Serotype 39	<0.1 µg/mL
CCCNc1nc2ccc(OCCC3CCN(c4ccc(C)nn4)CC3)cc2s1	cytopathic effect	MRC-5	Serotype 2	0.131 µg/mL
COCc1cc(CCCOc2c(Cl)cc(-c3noc(C)n3)cc2Cl)on1	cytopathic effect	HeLa	Serotype 21	0.009 µg/mL
CSc1nsc(-c2ccc(OCCCCOc3ccc([N+](=O)[O-])cc3)cc2)c1C#N	cytopathic effect	HELA-OHIO	Serotype 63 (group B)	>0.5 µM
Cc1cc(Cn2cnc3c(N(C)C)nc(C(F)(F)F)nc32)ccc1Cl	plaque count	M-HELA	Serotype 3	>8 µM
COC(=O)c1cc(CCCOc2c(C)cc(-c3noc(C)n3)cc2C)on1	cytopathic effect	HeLa	Serotype 21	0.004 µg/mL
CN(C)c1ccc(Cn2cnc3c(N(C)C)nc(C(F)(F)F)nc32)cc1	plaque count	M-HELA	Serotype 14	>8 µM
CCc1nc(-c2cc(C)c(OCCCc3cc(COC)no3)c(C)c2)no1	cytopathic effect	HeLa	Serotype 41	0.173 µg/mL
CS(=O)(=O)c1ccc(Cc2ccc(Sc3ccccc3)cc2)nc1	cytopathic effect	HeLa	TYPE 1A	0.6 µg/mL
CN(C)c1nc(C(F)(F)F)nc2c1ncn2Cc1ccccc1	plaque count	M-HELA	Serotype 5	>8 µM
CS(=O)(=O)c1ccc(NCc2ccc(C(F)(F)F)cc2)nc1	cytopathic effect	HeLa	TYPE 2	6.3 µg/mL
CS(=O)(=O)c1ccc(Oc2ccc(C(=O)c3ccccc3)cc2)nc1	cytopathic effect	HeLa	TYPE 21	>10 µg/mL
CCn1c(-c2cccc(F)c2)c(C)c(=O)c2cc(C(C)C)ccc21	cytopathic effect	HELA-OHIO	TYPE 1B/B632	0.64 µg/mL
CCS(=O)(=O)c1ccc(Cc2ccc(Cl)c(Cl)c2)nc1C(N)=O	cytopathic effect	HeLa	TYPE 64	2.5 µg/mL
Fc1cccc(Cn2cnc3c(Nc4cccc(F)c4)nc(C(F)(F)F)nc32)c1	plaque count	M-HELA	Serotype 12	4.4 µM
CCOc1nc2ccc(OCCCCCc3cc(C)no3)cc2o1	cytopathic effect	MRC-5	Serotype 2	0.209 µg/mL
Cc1c(-c2ccccc2)n(-c2ccc(F)cc2)c2ccc(C(C)C)cc2c1=O	cytopathic effect	HELA-OHIO	10/204-CV14	0.032 µg/mL
CSc1nsc(-c2ccc(OS(=O)(=O)c3ccc(C)cc3)cc2)c1C#N	cytopathic effect	HELA-OHIO	Serotype 89 (group B)	0.1 µM
CCOc1nc2cc(OCCC3CCN(c4ccc(C)nn4)CC3)ccc2s1	cytopathic effect	MRC-5	Serotype 2	0.104 µg/mL
CSc1nsc(-c2ccc(OCc3ccccc3)cc2)c1C#N	cytopathic effect	HELA-OHIO	Serotype 9 (group B)	3 µM
Cc1ccc(N2CCC(CCOc3ccc4nc(C)oc4c3)CC2)nn1	cytopathic effect	MRC-5	Serotype 2	>0.5 µg/mL
Cc1cc(OCCCc2ccc(C(C)F)nn2)cc(C)c1-c1noc(C(F)F)n1	cytopathic effect	HeLa	serotypes 3 4 5 9 16 18 38 66 75 67	0.02 µg/mL
N#Cc1cccnc1Oc1ccc(C(=O)c2ccccc2)cc1	cytopathic effect	HeLa	TYPE 2	>10 µg/mL
CN(C)c1nc(C(F)(F)F)nc2c1ncn2Cc1ccc(Cl)c(NC=O)c1	plaque count	M-HELA	TYPE 1B	0.56 µM
CS(=O)(=O)c1ccc(NCc2ccc(Cl)c(Cl)c2)nc1	cytopathic effect	HeLa	TYPE 4	>10 µg/mL
CN(C)c1nc(C(F)(F)F)nc2c1ncn2Cc1ccc(Cl)cc1Cl	plaque count	M-HELA	Serotype 19	>8 µM
CSc1nsc(-c2ccc(OCCCOc3ccccc3)cc2)c1C#N	cytopathic effect	HELA-OHIO	Serotype 51 (group B)	>20 µM
CS(=O)(=O)c1ccc(Cc2ccc(Cl)c(Cl)c2)nc1	cytopathic effect	HeLa	TYPE 29	2.5 µg/mL
CSc1nsc(-c2ccc(OCc3ccccc3)cc2)c1C#N	cytopathic effect	HELA-OHIO	Serotype 45 (group A)	>50 µM
CS(=O)(=O)c1ccc(Cc2ccccc2)nc1	cytopathic effect	HeLa	TYPE 2	>10 µg/mL
Cc1ccc(CCCCCOc2ccc(-c3noc(C(F)F)n3)c(C)c2)nn1	cytopathic effect	HeLa	serotypes 3 4 5 9 16 18 38 66 75 67	0.23 µg/mL
CCCOc1nc2ccc(OCCC3CCN(c4ccc(C)nn4)CC3)cc2o1	cytopathic effect	MRC-5	Serotype 14	0.056 µg/mL
CN(C)c1nc(C(F)(F)F)nc2c1ncn2Cc1ccc([N+](=O)[O-])cc1	plaque count	M-HELA	Serotype 13	>8 µM

The last 7 rows once more:

CSc1nsc(-c2ccc(OCCCOc3ccccc3)cc2)c1C#N ; method: cytopathic effect ; cells: HELA-OHIO ; strain: Serotype 51 (group B) ; value: >20 µM
CS(=O)(=O)c1ccc(Cc2ccc(Cl)c(Cl)c2)nc1 ; method: cytopathic effect ; cells: HeLa ; strain: TYPE 29 ; value: 2.5 µg/mL
CSc1nsc(-c2ccc(OCc3ccccc3)cc2)c1C#N ; method: cytopathic effect ; cells: HELA-OHIO ; strain: Serotype 45 (group A) ; value: >50 µM
CS(=O)(=O)c1ccc(Cc2ccccc2)nc1 ; method: cytopathic effect ; cells: HeLa ; strain: TYPE 2 ; value: >10 µg/mL
Cc1ccc(CCCCCOc2ccc(-c3noc(C(F)F)n3)c(C)c2)nn1 ; method: cytopathic effect ; cells: HeLa ; strain: serotypes 3 4 5 9 16 18 38 66 75 67 ; value: 0.23 µg/mL
CCCOc1nc2ccc(OCCC3CCN(c4ccc(C)nn4)CC3)cc2o1 ; method: cytopathic effect ; cells: MRC-5 ; strain: Serotype 14 ; value: 0.056 µg/mL
CN(C)c1nc(C(F)(F)F)nc2c1ncn2Cc1ccc([N+](=O)[O-])cc1 ; method: plaque count ; cells: M-HELA ; strain: Serotype 13 ; value: >8 µM